Anti-infective test results gathered from many reports (values: NIAID ChemDB through PubChem).

Shared fields: enzyme or target tests; agent: HIV-1; protein: Reverse transcriptase; measure: inhibition

"inactive" is the filed call at that dose; no cut-off is given.

compound | strain | changes | method | dose | value
CCN1C(=O)c2cc(Cl)nnc2N(CC)c2ccccc21 | - | - | - | 33 µM | 3%
CCNc1cccnc1N1CCN(C(=O)c2cc3cc(C(=O)OCc4ccccc4)ccc3[nH]2)CC1 | - | - | nucleotide incorporation | 100 µM | 82–95%
CCN1C(=O)c2ccnnc2N(CC)c2ccccc21 | - | - | - | 33 µM | 52%
CCOC(CC(=O)OCC(C)C)n1cc(C)c(=O)[nH]c1=O | - | - | ELISA | 10 µM | 50%
CN1C(=O)c2cc(Cl)nnc2N(C2CC2)c2ccccc21 | - | - | - | 33 µM | 56%
COC(=O)/C(C)=C\C=C\[C@H](C)[C@@H]1OCO[C@@H]([C@@H](C)[C@H](OC(C)=O)[C@H](C)[C@H](/C=C/O[C@@]2(C)Oc3c(C)c(O)c4c(c3C2=O)C(=O)C=C(N)C4=O)OC)[C@@H]1C | - | - | ELISA | 300 µM | <20%
COc1ccc2[nH]c(=O)c(CN(C(=O)c3ccccc3)C3CCCC3)cc2c1 | - | - | RT activity / absorbance | 20 µM | 5.1%
NOCc1c(F)cccc1Cl | - | - | nucleotide incorporation | 0.8 µg/mL | 0.9%
O=C(CCCCCCCCCCC(=O)Nc1ccc(S(=O)(=O)O)c2cccc(S(=O)(=O)O)c12)Nc1ccc(S(=O)(=O)O)c2cccc(S(=O)(=O)O)c12 | - | - | RT activity | 50 µM | 84%
O=C(CC(=O)Nc1ccc2ccccc2n1)Nc1ccc(Cl)cn1 | - | - | RT activity / absorbance | 100 µM | 65.52%
Cc1nnc(NC(=O)NCCc2ccccc2)s1 | - | - | nucleotide incorporation | 1 µg/mL | 21%
C[C@@H]1CC=C2C(CO)=CCC[C@@H]2[C@@]12C[C@@H](c1ccoc1)OC2=O | - | - | RT activity / luminescence | 100 µM | 20%
O=S(=O)(O)OCC1OC2OC3C(COS(=O)(=O)O)OC(OC4C(COS(=O)(=O)O)OC(OC5C(COS(=O)(=O)O)OC(OC6C(COS(=O)(=O)O)OC(OC7C(COS(=O)(=O)O)OC(OC1C(OS(=O)(=O)O)C2OS(=O)(=O)O)C(OS(=O)(=O)O)C7OS(=O)(=O)O)C(OS(=O)(=O)O)C6OS(=O)(=O)O)C(OS(=O)(=O)O)C5OS(=O)(=O)O)C(OS(=O)(=O)O)C4OS(=O)(=O)O)C(OS(=O)(=O)O)C3OS(=O)(=O)O | BRU | - | - | 25 µg/mL | 0%
Cc1[nH]c2ccccc2c1S(=O)(=O)c1ccccc1 | - | K103N | RT activity | 100 µM | 52%
Nc1nc2c(ncn2[C@@H]2O[C@H](COP(=O)(O)O[C@H]3[C@@H](F)[C@H](n4cnc5c(NCc6ccc7ccccc7c6)ncnc54)O[C@@H]3CO)[C@@H](O)[C@H]2O)c(=O)[nH]1 | - | - | RT activity | 100 µM | 7%
O=C(CCCCCCCCC(=O)Nc1ccc(S(=O)(=O)O)c2cccc(S(=O)(=O)O)c12)Nc1ccc(S(=O)(=O)O)c2cccc(S(=O)(=O)O)c12 | - | - | RT activity | 50 µM | 46%
Cc1ccc2c(c1)N(CC(C)C)C(=O)c1ccnnc1O2 | - | - | ELISA | 33 µM | 33%
CCOC(=O)CC(OCC)n1ccc(=O)[nH]c1=O | - | - | ELISA | 10 µM | 70%
Nc1nc2c(ncn2[C@@H]2O[C@H](COCO[C@H]3[C@@H](O)[C@H](n4cnc5c(=O)[nH]c(N)nc54)O[C@@H]3CO)[C@@H](O)[C@H]2O)c(=O)[nH]1 | - | - | RT activity | 100 µM | 14%
O=C(CC(=O)Nc1ncc(O)cc1O)Nc1ccc2ccccc2n1 | - | - | RT activity / absorbance | 100 µM | 82.32%
CC(C)Nc1cnccc1N1CCN(C(=O)c2cc3cc(F)ccc3[nH]2)CC1 | - | - | nucleotide incorporation | 100 µM | 63–92%
COC(/C=C/[C@@H](C)[C@@H](OC(C)=O)[C@H](C)[C@H](OC(C)=O)[C@H](C)[C@@H](OC(C)=O)[C@@H](C)/C=C/C=C(/C)C(=O)NC1=CC(=O)c2c(c(O)c(C)c3oc(C)cc23)C1=O)OC | - | - | ELISA | 300 µM | 0%
O=c1[nH]c2ccccc2cc1CNC1CC1 | - | - | RT activity / absorbance | 20 µM | -12.4%
CCCCCCCCCCCCCCCC(=O)Nc1ccc(S(=O)(=O)O)c2ccccc12 | - | - | RT activity | 50 µM | 2%
CCOC(=O)CC(OCC)n1cc(F)c(=O)[nH]c1=O | - | - | ELISA | 10 µM | 42%
O=C(CCCCCCCCC(=O)Nc1ccc(S(=O)(=O)O)c2ccccc12)Nc1ccc(S(=O)(=O)O)c2ccccc12 | - | - | RT activity | 50 µM | 30%
COc1cccc2cc(CNC3CC3)c(=O)[nH]c12 | - | - | RT activity / absorbance | 20 µM | 3.1%
CCCN1C(=O)c2cc(Cl)nnc2N(C2CC2)c2ccccc21 | - | - | - | 33 µM | 24%
O=C(CC(=O)Nc1ccc2ccccc2n1)Nc1cc([N+](=O)[O-])ccn1 | - | - | RT activity / absorbance | 100 µM | 71.36%
CC(C)(C)c1ccnc(C(=O)Nc2cc(Cl)c(Cl)cc2NC(=O)c2cc(C(C)(C)C)ccn2)c1 | - | - | ELISA | 6 µM | 23%
Cc1ccc2c(c1)N(CCC(C)C)C(=O)c1ccnnc1O2 | - | - | ELISA | 330 µM | 22%
CN(C)c1c2c(c3nc4ccccc4c4c[nH]c1c34)=NCCC2=O | - | - | - | 1000 µg/mL | inactive
COC(=O)c1cc(O)c(O)c(O)c1 | - | - | ELISA | 50 µM | 46.4%
CC(=O)O[C@H]1C[C@](C)(O)/C=C/C[C@@H](C)/C=C/[C@@]2(C)CC[C@@H](C(C)(C)OC(C)=O)[C@H]12 | - | - | nucleotide incorporation / radiometric | 40 µM | 25%
COc1ccc2[nH]c(=O)c(CN(C(=O)c3ccccc3)C3CCCCC3)cc2c1 | - | - | RT activity / absorbance | 20 µM | 5.9%
O=C(NCCc1ccccc1)Nc1nc2ccccc2s1 | - | - | nucleotide incorporation | 10 µg/mL | 40%
O=S(=O)(O)c1ccc(-c2c3nc(c(-c4ccc(S(=O)(=O)O)cc4)c4ccc([nH]4)c(-c4ccc(S(=O)(=O)O)cc4)c4nc(c(-c5ccc(S(=O)(=O)O)cc5)c5ccc2[nH]5)C=C4)C=C3)cc1 | - | - | ELISA | 6 µM | 19%
Cc1ccc(NC(=O)CC(=O)Nc2ccc3ccccc3n2)nc1 | - | - | RT activity / absorbance | 100 µM | 90.8%
CCCCCCCCCCCCCCc1sc(NC(=O)NCCc2ccccc2)nc1-c1ccc(Cl)cc1 | - | - | nucleotide incorporation | 1 µg/mL | 1%
CCCCOC(=O)CC(OCC)n1cc(C)c(=O)[nH]c1=O | - | - | ELISA | 10 µM | 58%
CCNc1cccnc1N1CCN(C(=O)c2cc3ccccc3o2)CC1 | - | - | nucleotide incorporation | 100 µM | 83–91%
O=C(NCCc1ccccc1)Nc1ncccn1 | - | - | nucleotide incorporation | 0.1 µg/mL | 5%
COc1ccc2c(c1)N(C(C)C)C(=O)c1cc(Cl)nnc1O2 | - | - | ELISA | 330 µM | 46%
O=C(c1ccccc1)N(Cc1cc2ccccc2[nH]c1=O)C1CCCCC1 | - | - | RT activity / absorbance | 20 µM | 14.2%
CC(NC(=S)Nc1nc2ccccc2s1)c1ccccc1 | - | - | ELISA / absorbance | 10 µM | 60.2%
CCCCCCCCCCCCCCCC(=O)Oc1cc(S(=O)(=O)O)c2ccccc2c1N | - | - | RT activity | 50 µM | 92.5%
COc1ccnc(NC(=O)CC(=O)Nc2ccc3ccccc3n2)c1 | - | - | RT activity / absorbance | 100 µM | 89.42%
O=S(=O)(O)c1cccc2ccc(OS(=O)(=O)c3cccc4c(S(=O)(=O)Oc5ccc6cccc(S(=O)(=O)O)c6c5)cccc34)cc12 | - | - | RT activity | 50 µM | 75%
Nc1nc2c(ncn2[C@@H]2O[C@H](COCO[C@@H]3[C@H](O)[C@@H](CO)O[C@H]3n3cnc4c(=O)[nH]c(N)nc43)[C@@H](O)[C@H]2O)c(=O)[nH]1 | - | - | RT activity | 100 µM | 10%
O=C(Oc1cc(S(=O)(=O)O)cc2cc(S(=O)(=O)O)ccc12)c1ccc(-c2ccc(C(=O)Oc3cc(S(=O)(=O)O)cc4cc(S(=O)(=O)O)ccc34)cc2)cc1 | - | - | RT activity | 50 µM | 100%
COC(=O)/C(C)=C\C=C\[C@H](C)[C@H](O)[C@@H](C)[C@@H](O)[C@@H](C)[C@H](OC(C)=O)[C@H](C)[C@H](/C=C/O[C@@]1(C)Oc2c(C)c(O)c3c(c2C1=O)C(=O)C=C(N)C3=O)OC | - | - | ELISA | 300 µM | <20%
O=C(c1ccccc1)N(Cc1cc2ccccc2[nH]c1=O)C1CC1 | - | - | RT activity / absorbance | 20 µM | 12%
O=C(CCCCCCC(=O)Nc1ccc(S(=O)(=O)O)c2cccc(S(=O)(=O)O)c12)Nc1ccc(S(=O)(=O)O)c2cccc(S(=O)(=O)O)c12 | - | - | RT activity | 50 µM | 0%

a–b is a range or a potency band. Blank or dashed fields: not listed here. Lines come from different laboratories, so protocols vary. Inhibition is in % at the dose shown (toxicity tests: loss of growth or viability).